{"source": "paper PMC11099021", "about": "“Mycobacterial biotin synthases require an auxiliary protein to convert dethiobiotin into biotin” (Nature Communications, 2024)", "test_system": "C[C@@H]1NC(=O)N[C@@H]1CCCCCC(=O)O", "test": "purified protein", "details": "pH 8.0; 25.0 °C"}
{"substance": "BioB.tb-BsaP (Mycobacterium tuberculosis H37Rv)", "values": [{"measurement": "Km", "result": 7, "unit": "µM"}]}
